Compound potency records, mixed from different reports. Data source: NIAID ChemDB in PubChem.

Shared fields: enzyme or target tests; species: HIV-1; target: Integrase; read by: strand transfer; read-out: IC50

Two numbers with a dash give a range or band. ICn: concentration for n% inhibition. An empty or dashed field is not shown. Rows are shuffled and stem from different studies.

compound | strain or isolate | result
O=C1c2c(ccc(O)c2O)CN1Cc1ccc(F)c(Cl)c1 | - | 0.16 µM
O=C1c2c(ccc(O)c2O)CN1Cc1cccc(Cl)c1F | - | 1.7 µM
O=c1cc(O)cc(/C=C/c2ccc(O)c(O)c2)o1 | - | 24 µM
Cc1ccccc1CN(Cc1ccccc1C)c1ccc2nc(N)[nH]c2c1 | - | 24 µM
CCN1C/C(=C\c2ccc(O)c([N+](=O)[O-])c2)C(=O)/C(=C/c2ccc(O)c([N+](=O)[O-])c2)C1 | - | >100 µM
O=C(O)C(=O)/C=C(\O)c1c[nH]c(=O)n(Cc2ccccc2)c1=O | - | 0.5 µM
Nc1nc2ccc(N(Cc3cccc(Oc4ccccc4)c3)Cc3cccc(Oc4ccccc4)c3)cc2[nH]1 | - | 4.9 µM
CCCCCCNC(=O)c1c(O)n(O)c(=O)c2cc([N+](=O)[O-])ccc12 | - | 1.64 µM
O=C(O)/C=C/c1ccc(O)c(O)c1 | LAI | >50 µg/mL
O=C1c2ccc(O)c(O)c2C(=O)N1Cc1c(F)cccc1F | - | 2.1 µM
CC(C)=C[C@H]1C[C@H](C)[C@]2(CC[C@]3(C)C[C@H]4[C@H](C(=O)C[C@@]4(C)O)C(C=O)=C[C@H]32)O1 | - | >125 µM
O=C1/C(=C/c2ccc(O)c(O)c2)CC(C(=O)O)C/C1=C\c1ccc(O)c(O)c1 | - | 1 µM
CCOP(=O)(CNC(=O)c1c(O)c2ncc(Cc3ccc(F)cc3)cc2n(CCN2CCCC2=O)c1=O)OCC | - | <0.1 µM
COC(=O)C(=O)/C=C(\O)c1ccc(O)c(O)c1 | - | 84.4 µM
N=C(N)c1ccc2cc(C(=O)Nc3cccc(OC4CCCC4)c3)cc(Br)c2c1 | - | 15.6 µM
O=C(NCCCCl)C1C(=O)N(O)C(=O)c2ccccc21 | - | 0.187 µM
C/C=C/C=C/[C@H]1C(C)=C[C@H]2C[C@@H](C)CC[C@@H]2[C@@]1(C)/C(O)=C1/C(=O)[C@H](CO)N(C)C1=O | - | 7–15 µM
COc1ccccc1/C(O)=C/C(=O)C(=O)O | - | >100 µM
O=C1/C(=C/c2ccc(O)c([N+](=O)[O-])c2)CNC/C1=C\c1ccc(O)c([N+](=O)[O-])c1 | - | >100 µM
Cc1ccc(CNC(=O)C2C(=O)N(O)C(=O)c3ccccc32)cc1 | - | 2.55 µM
O=C(/C=C/c1ccc(O)c(O)c1)O[C@@H]1CC(O)(C(=O)O)C[C@@H](OC(=O)/C=C/c2ccc(O)c(O)c2)C1O | - | 0.63 µM
O=C(NCc1ccc(F)cc1)C1C(=O)N(O)C(=O)c2cc(Cl)ccc21 | - | 0.26 µM
O=C(/C=C(\O)c1cc(C(=O)O)n(Cc2ccccc2)c1)c1ncn[nH]1 | - | 1 µg/mL
O=C1NC(=O)c2c1ccc(O)c2O | - | 165 µM
Cc1oc2cc3c(-c4c(O)cc(O)c5c(O)c6c(cc45)OC(C)C(C)C6=O)c(=O)cc(O)c3c(O)c2c(O)c1C | - | 4 µM
O=C(O)/C=C/c1cc(C(=O)O)c(O)c2nc(/C=C/c3ccc(O)c(O)c3)ccc12 | - | 0.006 µM
CCOP(=O)(O)CCCNC(=O)c1c(O)c2ncc(Cc3ccc(F)cc3)cc2n(C)c1=O | - | <0.1 µM
COC(=O)C(=O)/C=C(\O)c1ccc2cc(O)c(O)cc2c1 | - | 3.7 µM
Cn1c(=O)c(C(=O)NCCCCP(=O)(O)O)c(O)c2ncc(Cc3ccc(F)cc3)cc21 | - | <0.1 µM
O=C(/C=C/c1ccc(O)c(O)c1)OCCc1ccccc1 | - | 19 µM
O=c1c2[nH]cc[nH]c2c(=O)c2c(=O)n(Cc3cc(Cl)cc(Cl)c3)c(=O)c12 | - | 0.427 µM
CCOP(=O)(CCNC(=O)c1c(O)c2ncc(Cc3ccc(F)cc3)cc2[nH]c1=O)OCC | - | <0.1 µM
O=C1c2ccc(O)c(O)c2C(=O)N1Cc1cccc(Cc2cc(F)c(F)c(F)c2)c1 | - | 0.58 µM
COc1ccc(Cn2nnnc2C(=O)CC(=O)c2c[nH]c3ccccc23)cc1 | - | >533 µM
CCOC(=O)C(=O)C(=O)c1cccn1Cc1ccc(F)cc1 | - | >100 µM
COC(=O)C(=O)OC1(C(=O)O)C[C@@H](OC(=O)/C=C/c2ccc(O)c(O)c2)C(O)[C@H](OC(=O)/C=C/c2ccc(O)c(O)c2)C1 | LAI | 0.26 ± 0.08 µg/mL
CCOP(=O)(O)CCCCNC(=O)c1c(O)c2ncc(Cc3ccc(F)cc3)cc2n(C)c1=O | - | <0.1 µM
CCCCOC(=O)C(=O)CC(=O)c1cccn1Cc1ccc(F)cc1 | - | >100 µM
O=C1c2c(ccc(O)c2O)CN1Cc1ccccc1 | - | 12 µM
CC(=O)NCCSS(=O)(=O)CCCCS(=O)(=O)SCCNC(C)=O | - | >200 µM
O=C(O)/C=C/c1ccc(O)c(O)c1 | - | 24 µM
O=C1NC(=O)C(=Cc2cc(O)c(O)c(O)c2)C(=O)N1 | - | 4 µM
C=C1CC[C@H]2[C@](C)(CCC=C(C)C)[C@@H](OC(C)=O)CC[C@]2(C)[C@@H]1Cc1c(OC)oc(C)c(C)c1=O | - | 25 µM
COC(=O)C(=O)CC(=O)c1cccn1Cc1ccc(F)cc1 | - | >100 µM
O=C(NNC1=Nc2ccccc2C(c2ccccc2)=NC1)c1cnccn1 | - | 2–3 µM
C/C=C/c1cc(=O)c(C(=O)c2c(OC)cc(OC)cc2C(=O)OC)co1 | - | >140 µM
O=C(O)C(=O)/C=C(\O)c1ccc2ccccc2c1 | - | >100 µM
Nc1nc2ccc(NCc3ccccc3)cc2[nH]1 | - | 88 µM
O=C(Cc1cccs1)Nc1ccc2c(c1)C(=O)N(O)C(=O)C2C(=O)NCc1ccc(F)cc1 | - | 0.27 µM
O=C(O)C(=O)CC(=O)c1c[nH]c2ccccc12 | - | 15.1 µM
O=C1c2c(O)c(=O)n(-c3ccc(N4CCOCC4)cc3)c(=O)n2CCN1Cc1ccc(F)cc1 | - | <10 µM
O=C1c2c(ccc(O)c2O)CN1Cc1cccc(Cl)c1 | - | 3.5 µM
CCOP(=O)(CNC(=O)c1c(O)c2ncc(Cc3ccc(F)cc3)cc2n(C)c1=O)OCC | - | <0.1 µM
CCC1CN(C(=O)OC)Cc2ccc([C@@H]3CC3c3ccc4cc(C(=N)N)ccc4c3)cc21 | - | 28 µM
Cc1cn([C@H]2C[C@H](N=[N+]=[N-])[C@@H](COP(=O)(O)O)O2)c(=O)[nH]c1=O | - | 140 µM
COc1cc(-c2ccc(O)cc2)c(OC)c(O)c1-c1ccc(O)cc1 | - | 47.7 µM
O=C(NCc1ccc(F)cc1)C1C(=O)N(O)C(=O)c2cc(F)ccc21 | - | 0.5 µM
O=C1c2ccc(O)c(O)c2C(=O)N1Cc1cccc(I)c1 | - | 1.1 µM
O=C1c2c(O)c(=O)n(CCc3cn4ccccc4n3)c(=O)n2CCN1Cc1ccc(F)cc1 | - | <10 µM
CN1C[C@H](O)C(C)(C)Cn2c(c3c(c(O)c2=O)C(=O)N(Cc2ccc(F)c(Cl)c2)CC3)C1=O | - | 0.014 µM
O=C(NCc1ccc(F)cc1)c1nc(N2CCCCS2(=O)=O)c2cccnc2c1O | - | 0.008 µM
O=C1c2c(O)c(=O)n(CC(c3ccncc3)N3CCOCC3)c(=O)n2CCN1Cc1ccc(F)cc1 | - | <10 µM

A second listing of 4 rows from above:

O=C1c2c(O)c(=O)n(-c3ccc(N4CCOCC4)cc3)c(=O)n2CCN1Cc1ccc(F)cc1 ; result: <10 µM
COC(=O)C(=O)/C=C(\O)c1ccc(O)c(O)c1 ; result: 84.4 µM
O=C1c2c(ccc(O)c2O)CN1Cc1ccc(F)c(Cl)c1 ; result: 0.16 µM
CCC1CN(C(=O)OC)Cc2ccc([C@@H]3CC3c3ccc4cc(C(=N)N)ccc4c3)cc21 ; result: 28 µM